Measurements reported in patent US6713486B1, “Antiviral 2,4-pyrimidinedione derivatives and process for the preparation thereof” (Korea Research Institute of Chemical Technology, priority 1999, dated 2004).

Each compound was assayed on HIV-1. Settings: CD50/ED50, MT-4 cells.

| SMILES | S.I. Selectivity index (CD50/ED50) |
| --- | --- |
| Cc1cc(C)cc(C(=O)c2c(C(C)C)c(=O)[nH]c(=O)n2Cc2ccncc2)c1 [Compound 1, 1-(4′-Picolyl)-5-isopropyl-6-(3′,5′-dimethylbenzoyl)-2,4-pyrimidinedione] | 8,600 |
| Cc1cc(C)cc(C(=O)c2c(C(C)C)c(=O)[nH]c(=O)n2Cc2cccnc2)c1 [Compound 2, 1-(3′-Picolyl)-5-isopropyl-6-(3′, 5′-dimethylbenzoyl)-2,4-pyrimidinedione] | 7,578 |
| Cc1cc(C)cc(C(=O)c2c(C(C)C)c(=O)[nH]c(=O)n2Cc2ccccn2)c1 [Compound 3, 1-(2′-Picolyl)-5-isopropyl-6-(3′, 5′-dimethylbenzoyl)-2,4-pyrimidinedione] | 4,788 |
| Cc1cc(Cl)cc(Cn2c(C(=O)c3cc(C)cc(C)c3)c(C(C)C)c(=O)[nH]c2=O)c1 [Compound 40] | 229 |
| Cc1cc(C)cc(C(=O)c2c(C(C)C)c(=O)[nH]c(=O)n2Cc2cc(F)cc(F)c2)c1 [Compound 43] | 2,057 |
| Cc1cc(C)cc(C(=O)c2c(C(C)C)c(=O)[nH]c(=O)n2Cc2cc(C(F)(F)F)cc(C(F)(F)F)c2)c1 [Compound 44] | 5 |
| Cc1cc(C)cc(Nc2c(C(C)C)c(=O)[nH]c(=O)n2Cc2ccncc2)c1 [Compound 66, 1-(4′-Picolyl)-5-isopropyl-6-(3′, 5′-dimethylphenylamino)-2,4-pyrimidinedione] | >1,287 |
| CCc1c(Nc2cc(C)cc(C)c2)n(Cc2ccncc2)c(=O)[nH]c1=O [Compound 67, 1-(4′-Picolyl)-5-ethyl-6-(3′, 5′-dimethylphenylamino)-2,4-pyrimidinedione] | 130 |
| Cc1cc(C)cc(C(=O)c2c(C(C)C)c(=O)[nH]c(=O)n2Cc2cc[n+]([O-])cc2)c1 [Compound 68, 1-(N-oxo-4′-Picolyl)-5-isopropyl-6-(3′,5′-dimethylbenzoyl)-2,4-pyrimidinedione] | 3,928 |
| Cc1cc(C)cc(C(=O)c2c(C(C)C)c(=O)[nH]c(=O)n2Cc2cc[n+]([O-])cc2C)c1 [Compound 69, 1-(N-oxo-3′-Methyl-4′-picolyl)-5-isopropyl-6-(3′, 5′-dimethylbenzoyl)-2,4-pyrimidinedione] | 3,853 |
| Cc1cc(C)cc(C(=O)c2c(C(C)C)c(=O)[nH]c(=O)n2Cc2c(C)c[n+]([O-])cc2C)c1 [Compound 70, 1-(N-oxo-3′, 5-Dimethyl-4′-picolyl)-5-Isopropyl-6-(3′, 5′-dimethylbenzoyl)-2,4-Pyrimidinedione] | 4,712 |
| Cc1cc(Cl)cc(C(=O)c2c(C(C)C)c(=O)[nH]c(=O)n2Cc2c(C)c[n+]([O-])cc2C)c1 [Compound 71, 1-(N-oxo-3′,5′-Dimethyl-4′-picolyl)-5-isopropyl-6-(3′,-chloro-5-methylbenzoyl)-2,4-pyrimidinedione] | 3,092 |
| CC(=O)OCc1cnccc1Cn1c(C(=O)c2cc(C)cc(C)c2)c(C(C)C)c(=O)[nH]c1=O [Compound 72, 1-(3′-Acetoxymethyl-4′-picolyl)-5-Isopropyl-6-(3′,5′-dimethylbenzoyl)-2,4-pyrimidinedione] | 4,365 |
| CC(=O)OCc1cncc(C)c1Cn1c(C(=O)c2cc(C)cc(C)c2)c(C(C)C)c(=O)[nH]c1=O [Compound 73, 1-(3′-Acetoxymethyl-5′-methyl-4′-picolyl)-5-isopropyl-6-(3′,5′-dimethylbenzoyl)-2,4-pyrimidinedione] | 5,903 |
| Cc1cc(C)cc(C(=O)c2c(C(C)C)c(=O)[nH]c(=O)n2Cc2ccncc2CO)c1 [Compound 75, 1-(3′-Hydroxymethyl-4′-picolyl)-5-isopropyl-6-(3′,5′-dimethylbenzoyl)-2,4-pyrimidinedione] | 13,444 |
| Cc1cc(C)cc(C(=O)c2c(C(C)C)c(=O)[nH]c(=O)n2Cc2c(C)cncc2CO)c1 [Compound 76, 1-(3′-Hydroxymethyl-5′-methyl-4′-picolyl)-5-isopropyl-6-(3′, 5′-dimethylbenzoyl)-2,4-pyrimidinedione] | 4,561 |
| Cc1cc(Cl)cc(C(=O)c2c(C(C)C)c(=O)[nH]c(=O)n2Cc2c(C)cncc2CO)c1 [Compound 77, 1-(3′-Hydroxymethyl-5′-methyl-4′-picolyl)-5-isopropyl-6-(3′-chloro-5′-methylbenzoyl)-2,4-pyrimidinedione] | 2,052 |
| COC(=O)c1cnccc1Cn1c(C(=O)c2cc(C)cc(C)c2)c(C(C)C)c(=O)[nH]c1=O [Compound 78, 1-(3′-Methoxycarbonyl-4′-picolyl)-5-isopropyl-6-(31,51-dimethylbenzoyl)-2,4-pyrimidinedione] | 5,414 |
| Cc1cc(C)cc(C(=O)c2c(C(C)C)c(=O)[nH]c(=O)n2Cc2ccncc2C(N)=O)c1 [Compound 79, 1-(3′-Carbamoyl-4′-picolyl)-5-isopropyl-6-(3′,5′-dimethylbenzoyl)-2,4-pyrimidinedione] | >10,942 |
| Cc1cc(Cl)cc(C(=O)c2c(C(C)C)c(=O)[nH]c(=O)n2Cc2ccncc2C(N)=O)c1 [Compound 80, 1-(3′-Carbamoyl-4′-picolyl)-5-isopropyl-6-(3′-chloro-5′-methylbenzoyl)-2,4-pyrimidinedione] | 2,507 |
